Data on one molecule can be found in patent US20120213805A1 (published 2012).

This experiment addresses alpha-amanitin-glutarate-huHEA125 conjugate. The experiment is described as follows: flow cytometry competition with FITC-labeled antibody on Colo205 cells.

B1: epithelial cell adhesion molecule (EpCAM) (other, human, UniProt P16422 24-314, looked up)
chain: QEECVCENYKLAVNCFVNNNRQCQCTSVGAQNTVICSKLAAKCLVMKAEMNGSKLGRRAKPEGALQNNDGLYDPDCDESGLFKAKQCNGTSMCWCVNTAGVRRTDKDTEITCSERVRTYWIIIELKHKAREKPYDSKSLRTALQKEITTRYQLDPKFITSILYENNVITIDLVQNSSQKTQNDVDIADVAYYFEKDVKGESLFHSKKMDLTVNGEQLDLDPGQTLIYYVDEKAPEFSMQGLKAGVIAVIVVVVIAVVAGIVVLVISRKKRMAKYEKAEIKEMGEMHRELNA
notes: whole, on cells; also called CD326; EpCAM antigen
Turning to B1, the binding result is given as “binds”.
